PubChem BioAssay AID624099 – ICCB-Longwood, 2012

Assay: 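Host factors E2 relies on to silence an HPV18 LCR reporter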 (primary screen)
System: human C33A cervical carcinoma cells (HPV-negative) stably expressing BPV1 E2 and an HPV18 LCR luciferase reporter
Knock-down reagent: siRNA pool against human genes, 40 nM
Time to read-out: 72 h
Measured: 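HPV18 LCR reporter light per well, converted to plate-wise z-scores that exclude control wells, and averaged over triplicate plates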
Direction: mean z-score and z-score: higher = stronger reporter signal, weaker E2 silencing
Call rule: 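Mean z ≥ 2 together with z ≥ 2 in two or more of the three replicates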
The deposit covers about 21,000 reagents; below is an unselected part. 497 of all reagents (2.4%) were called active. 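Higher z means weaker E2 silencing; only reporter increases were scored, and knock-downs that hurt cell survival may mask genuine repressor factors.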

ELAVL3 gave mean z-score 0.09; z-score, replicate A = 0.49; z-score, replicate B = 0; z-score, replicate C = -0.23; inactive.
Against TKTL2, the values are mean z-score -1.67; z-score, replicate A = -1.62; z-score, replicate B = -1.33; z-score, replicate C = -2.05; inactive.
Knock-down of PRR30 gave: mean z-score -0.6; z-score, replicate A = -0.48; z-score, replicate B = -0.73; z-score, replicate C = -0.6; inactive.
For HSPH1, the values are mean z-score -1.14; z-score, replicate A = -0.9; z-score, replicate B = -1.28; z-score, replicate C = -1.24; inactive.
Depletion of SPG21 came out at: mean z-score 0.09; z-score, replicate A = 0.25; z-score, replicate B = 0.12; z-score, replicate C = -0.08; inactive.
After knock-down of CDKN2D the results were mean z-score 0.62; z-score, replicate A = -0.27; z-score, replicate B = 1.05; z-score, replicate C = 1.08; inactive.
RPAIN scored mean z-score 0.97; z-score, replicate A = 1.02; z-score, replicate B = 0.7; z-score, replicate C = 1.2; inactive.
After knock-down of LOC390282, the screen gave mean z-score 0.7; z-score, replicate A = 0.63; z-score, replicate B = 0.38; z-score, replicate C = 1.08; inactive.
Knock-down of CDC23 came out at: mean z-score 0.71; z-score, replicate A = 0.51; z-score, replicate B = 0.6; z-score, replicate C = 1.01; inactive.
Silencing of THAP4 resulted in: mean z-score 1; z-score, replicate A = 0.77; z-score, replicate B = 1.44; z-score, replicate C = 0.8; inactive.
Depletion of WDR46 resulted in: mean z-score -0.53; z-score, replicate A = -0.57; z-score, replicate B = -0.72; z-score, replicate C = -0.3; inactive.
Knock-down of PEG3 came out at: mean z-score -0.12; z-score, replicate A = -0.12; z-score, replicate B = -0.03; z-score, replicate C = -0.22; inactive.
With knock-down of DPYSL3, the screen gave mean z-score -0.03; z-score, replicate A = -0.41; z-score, replicate B = 0.16; z-score, replicate C = 0.16; inactive.

Part of the list above, reformatted:
{"target":"CDC23","mean z-score":0.71,"z-score, replicate A":0.51,"z-score, replicate B":0.6,"z-score, replicate C":1.01,"Call":"inactive"}
{"target":"THAP4","mean z-score":1,"z-score, replicate A":0.77,"z-score, replicate B":1.44,"z-score, replicate C":0.8,"Call":"inactive"}
{"target":"WDR46","mean z-score":-0.53,"z-score, replicate A":-0.57,"z-score, replicate B":-0.72,"z-score, replicate C":-0.3,"Call":"inactive"}

Further records follow:
For CMBL the deposit lists mean z-score -0.4; z-score, replicate A = -0.24; z-score, replicate B = -0.57; z-score, replicate C = -0.4; inactive.
After knock-down of DDX17, the screen gave mean z-score 0.1; z-score, replicate A = 0.02; z-score, replicate B = 0.12; z-score, replicate C = 0.15; inactive.
Silencing of F9 came out at: mean z-score -0.19; z-score, replicate A = -0.14; z-score, replicate B = -0.34; z-score, replicate C = -0.08; inactive.
After knock-down of LOC253883 (retired record), the record shows mean z-score 0.33; z-score, replicate A = 0.4; z-score, replicate B = -0.07; z-score, replicate C = 0.65; inactive.
After knock-down of LOC401061 (retired record), the screen gave mean z-score 0.75; z-score, replicate A = 1.35; z-score, replicate B = 0.53; z-score, replicate C = 0.37; inactive.
For UCMA, the values are mean z-score -0.3; z-score, replicate A = -0.41; z-score, replicate B = -0.14; z-score, replicate C = -0.36; inactive.
With knock-down of LOC388791 (retired record) the results were mean z-score -0.67; z-score, replicate A = -0.34; z-score, replicate B = -0.86; z-score, replicate C = -0.81; inactive.
With knock-down of TMEM35A, the screen gave mean z-score 0.42; z-score, replicate A = 0.3; z-score, replicate B = 0.32; z-score, replicate C = 0.64; inactive.
After knock-down of TOMM40 the results were mean z-score -0.76; z-score, replicate A = -0.8; z-score, replicate B = -0.96; z-score, replicate C = -0.53; inactive.
Depletion of DHX38 came out at: mean z-score -0.3; z-score, replicate A = -0.4; z-score, replicate B = -0.13; z-score, replicate C = -0.36; inactive.
After knock-down of CD209, the screen gave mean z-score 1.78; z-score, replicate A = 1.67; z-score, replicate B = 1.8; z-score, replicate C = 1.88; inactive.
With knock-down of SPIN1 the results were mean z-score 0.93; z-score, replicate A = 0.61; z-score, replicate B = 1.15; z-score, replicate C = 1.04; inactive.
After knock-down of PAX7, the screen gave mean z-score 3.13; z-score, replicate A = 3.26; z-score, replicate B = 2.96; z-score, replicate C = 3.17; active.
With knock-down of NUMB, the screen gave mean z-score -1.34; z-score, replicate A = -1.21; z-score, replicate B = -1.31; z-score, replicate C = -1.49; inactive.
